Results reported in paper PMC9338942, “(+)-Usnic acid and its salts, inhibitors of SARS‐CoV‐2, identified by using in silico methods and in vitro assay” (Scientific Reports, 2022).
Which two values form the index is not stated here.

System: SARS-CoV-2 (βCoV/Korea/KCDC/2020)
Assay type: cell-based
Details: original SARS-CoV-2 strain

Compound	SI (selectivity index)
CC(=O)C1=C(O)[C@]2(C)C(=CC1=O)Oc1c(C(C)=O)c([O-])c(C)c([O-])c12.[K+].[K+] [KU, potassium usnate]	6.60
CC(=O)C1=C([O-])C=C2Oc3c(C(C)=O)c(O)c(C)c(O)c3[C@]2(C)C1=O.[Na+] [NaU, sodium usnate]	9.38
